Pooled drug test results. Numbers come from NIAID ChemDB, via PubChem.

All rows: enzyme or target tests; agent: HIV-1; protein: Reverse transcriptase

Fold resistance has wild type as its base. Blank or dashed fields: not listed here. Inhibition is in % at the dose shown (toxicity tests: loss of growth or viability). Lines come from different laboratories, so protocols vary. a–b is a range or a potency band. ICn: concentration for n% inhibition.

SMILES,strain,mutations,read by,endpoint,dose,value
CCN1c2ncc(CCOc3ccc(C(=O)N4CCC(C(=O)O)CC4)cc3C)cc2C(=O)N(C)c2cccnc21,IIIB,,nucleotide incorporation / radiometric,IC50,,<0.05 µM
Cc1cc(S(N)(=O)=O)ccc1NC(=O)CSc1nnc(Br)n1-c1ccc2c3c(cccc13)CC2,,RT-Y188L,nucleotide incorporation / radiometric,fold resistance,,>2
CCN1c2ncc(CCOc3cccc4c3ccc[n+]4[O-])cc2C(=O)N(C)c2ccc(Cl)nc21,,RT-K103N V108I,nucleotide incorporation / radiometric,fold resistance,,6.4
CCc1ccc(-n2c(I)nnc2SCC(=O)Nc2ccc(S(N)(=O)=O)cc2Cl)c2ccccc12,,RT-Y181C,nucleotide incorporation / radiometric,fold resistance,,>1
COc1ccc(OC)c(C/C=C(\C)CC/C=C(\C)CC/C=C(\C)CC/C=C(\C)CC/C=C(\C)CCC=C(C)C)c1,,,nucleotide incorporation,IC90,,64.5 µM
CCN1c2ncc(CCOc3ccc(NS(=O)(=O)C(F)(F)F)c4ccccc34)cc2C(=O)N(C)c2ccc(F)nc21,,RT-K103N Y181C,nucleotide incorporation / radiometric,fold resistance,,1–10
CCc1ccc(-n2c(Br)nnc2SCC(=O)Nc2ccc(S(N)(=O)=O)cc2Cl)c2ccccc12,,RT-Y188L,nucleotide incorporation / radiometric,fold resistance,,>1
CCN1c2ncc(CCOc3ccc(NC(=O)CC(C)(C)C(=O)O)c4ccccc34)cc2C(=O)N(C)c2cccnc21,,RT-Y188L,nucleotide incorporation / radiometric,IC50,,>1 µM
COc1ccc2c(c1)CN(c1nn3c(-c4cccs4)nnc3c3ccccc13)CC2,IIIB,,RT activity / fluorescence,IC90,,75.2 µM
CCN1c2ncc(CCOc3ccc(C(=O)O)c4c3CCCC4)cc2C(=O)N(C)c2ccc(F)nc21,,RT-K103N Y181C,nucleotide incorporation / radiometric,IC50,,0.1–1 µM
CCN1c2ncc(CCOc3ccc(C(=O)Nc4ccc[n+]([O-])c4)cc3C)cc2C(=O)Nc2c(C)ccnc21,IIIB,RT-K103N Y181C,nucleotide incorporation / radiometric,IC50,,<0.05 µM
O=C(NCCc1ccccc1)Nc1nc(-c2ccc(Br)cc2)cs1,,,nucleotide incorporation,inhibition,1 µg/mL,1%
CCN1c2ncc(CCOc3ccc(-c4ccc(CC(=O)O)cc4F)cc3C)cc2C(=O)N(C)c2cccnc21,IIIB,,nucleotide incorporation / radiometric,IC50,,<0.05 µM
Cc1nnc2c3ccccc3c(N3CCc4ccc(C(=O)O)cc4C3)nn12,IIIB,,RT activity / fluorescence,IC90,,94.5 µM
CC(C)(C)c1csc(NC(=O)NCCc2ccccc2)n1,,,nucleotide incorporation,inhibition,1 µg/mL,8%
CC(C)c1nnc2c3ccccc3c(N3CCc4ccc(NS(C)(=O)=O)cc4C3)nn12,IIIB,,RT activity / fluorescence,IC90,,2.47 µM
Cc1ccc2c(C)cc(C)c(-n3c(SCC(=O)Nc4ccc(S(N)(=O)=O)cc4C)nnc3C(F)F)c2n1,,RT-Y188L,nucleotide incorporation / radiometric,fold resistance,,>2
C=Cc1cc(N(CC)CC)nc(S(C)(=O)=O)n1,,RT-Y181I,nucleotide incorporation / radiometric,Ki,,>400 µM
CCN1c2ncc(CCOc3ccc(-c4ccc(C(=O)O)cc4)c(Cl)c3)cc2C(=O)N(C)c2cccnc21,IIIB,RT-K103N Y181C,nucleotide incorporation / radiometric,fold resistance,,>1
FC(F)(F)c1ccc2c(c1)CN(c1nn3c(C4CC4)nnc3c3ccccc13)CC2,KER2008,,RT activity / fluorescence,IC90,,6.62 µM
CCOC(=O)C(C)NS(=O)(=O)c1ccc(NC(=O)CSc2nnc(C(F)F)n2-c2ccc(C)c3c2CCCC3)c(Cl)c1,,RT-Y188L,nucleotide incorporation / radiometric,fold resistance,,>2
Cc1cc(C)cc(S(=O)(=O)c2c(C(=O)NCC(N)=O)[nH]c3ccc(Cl)c(F)c23)c1,,L100I,RT activity / nucleotide incorporation,Ki,,0.55 µM
CCN1c2ncc(CCOc3ccc(-c4ccc(C)[n+]([O-])c4)cc3C)cc2C(=O)N(C)c2cccnc21,IIIB,RT-K103N Y181C,nucleotide incorporation / radiometric,fold resistance,,1
Cc1nnc2c3c(c(N4CCc5ccccc5C4)nn12)C1CCC3CC1,IIIB,,RT activity / fluorescence,IC90,,19.4 µM
CCc1ccc(-n2c(SCC(=O)Nc3ccc(C(=O)O)cc3C)nnc2C(F)F)c2ccccc12,,RT-Y188L,nucleotide incorporation / radiometric,fold resistance,,>2
Cc1cc(C)cc(S(=O)(=O)c2c(C(N)=O)[nH]c3ccc(Cl)c(F)c23)c1,,L100I,RT activity / nucleotide incorporation,Ki,,0.03 µM
N#Cc1cccc2c(-n3c(SCC(=O)Nc4ccc(S(N)(=O)=O)cc4Cl)nnc3C(F)F)cccc12,,RT-Y181C,nucleotide incorporation / radiometric,fold resistance,,>1
CCN1c2ncc(CCOc3ccc(/C=C(\C)C(=O)O)c4ccccc34)cc2C(=O)N(C)c2ccc(C)nc21,,RT-Y188L,nucleotide incorporation / radiometric,fold resistance,,>10
CCCCNC(=O)c1ccc(NC(=O)CSc2nnc(Br)n2-c2ccc(CC)c3ccccc23)c(Cl)c1,,RT-Y188L,nucleotide incorporation / radiometric,fold resistance,,>1
CCN1c2ncc(CCOc3ccc(-c4ccc(F)c(C(=O)O)c4)cc3)cc2C(=O)N(C)c2cccnc21,IIIB,RT-K103N Y181C,nucleotide incorporation / radiometric,IC50,,>0.1 µM
Cc1cc(C)c(-n2c(SCC(=O)Nc3ccc(S(N)(=O)=O)cc3Cl)nnc2C(F)(F)F)c2c1CCCC2,,RT-Y181C,nucleotide incorporation / radiometric,fold resistance,,>2
O=C(NCCc1ccccc1)Nc1nc2ccc(F)cc2s1,,,nucleotide incorporation,inhibition,0.1 µg/mL,33%
CCc1ccc(-n2c(C)nnc2SCC(=O)Nc2ccc(S(N)(=O)=O)cc2C)c2ccccc12,,RT-Y188L,nucleotide incorporation / radiometric,fold resistance,,>2
CCN1c2ncc(CCOc3ccc(C(=O)O)c4c3CCCC4)cc2C(=O)N(C)c2ccc(Cl)nc21,,RT-Y188L,nucleotide incorporation / radiometric,fold resistance,,1–10
Cc1nnc2c3ccccc3c(N3CCc4cc(O)c(O)cc4C3)nn12,98US_MSC5016,,RT activity / fluorescence,IC90,,2.83 µM
C=Cc1cc(N(C)C)nc(S(C)(=O)=O)n1,,RT-L100I,nucleotide incorporation / radiometric,Ki,,0.012 µM
CCN1c2ncc(CCOc3ccc(C(=O)NCc4cc[n+]([O-])cc4)cc3C)cc2C(=O)N(C)c2cccnc21,IIIB,,nucleotide incorporation / radiometric,IC50,,<0.05 µM
O=C(NCCc1ccccc1)Nc1nc(-c2ccc(Cl)cc2)cs1,,,nucleotide incorporation,inhibition,1 µg/mL,1%

The last 6 rows once more:

SMILES	strain	mutations	read by	endpoint	dose	value
CCc1ccc(-n2c(C)nnc2SCC(=O)Nc2ccc(S(N)(=O)=O)cc2C)c2ccccc12		RT-Y188L	nucleotide incorporation / radiometric	fold resistance		>2
CCN1c2ncc(CCOc3ccc(C(=O)O)c4c3CCCC4)cc2C(=O)N(C)c2ccc(Cl)nc21		RT-Y188L	nucleotide incorporation / radiometric	fold resistance		1–10
Cc1nnc2c3ccccc3c(N3CCc4cc(O)c(O)cc4C3)nn12	98US_MSC5016		RT activity / fluorescence	IC90		2.83 µM
C=Cc1cc(N(C)C)nc(S(C)(=O)=O)n1		RT-L100I	nucleotide incorporation / radiometric	Ki		0.012 µM
CCN1c2ncc(CCOc3ccc(C(=O)NCc4cc[n+]([O-])cc4)cc3C)cc2C(=O)N(C)c2cccnc21	IIIB		nucleotide incorporation / radiometric	IC50		<0.05 µM
O=C(NCCc1ccccc1)Nc1nc(-c2ccc(Cl)cc2)cs1			nucleotide incorporation	inhibition	1 µg/mL	1%